Measured values from paper PMC6753193.

Chains of the proteins cited; added tags and fusions are not shown. Residues count along the entry.
UniProt P62136, 7-300: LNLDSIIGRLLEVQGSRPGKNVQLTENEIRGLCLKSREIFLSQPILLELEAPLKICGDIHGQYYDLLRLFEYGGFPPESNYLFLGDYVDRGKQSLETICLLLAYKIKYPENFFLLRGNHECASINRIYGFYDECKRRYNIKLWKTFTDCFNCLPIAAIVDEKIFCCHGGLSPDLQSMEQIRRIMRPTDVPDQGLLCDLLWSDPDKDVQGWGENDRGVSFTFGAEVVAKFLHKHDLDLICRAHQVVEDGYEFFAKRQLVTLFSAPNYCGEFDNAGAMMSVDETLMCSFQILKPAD

Target: recombinant human PP1α (residues 7–300) (human) (UniProt P62136)
Experiment: SPR

HIPRSPYKFPSSPLRKKCCFHCQVCFITK (phosphoserine at the fifth residue, HIPR(pS)P (a single serine phosphorylated)) [pRb-Tat hybrid peptide] was tested, and the Kd was 155 nM.
